Results of unrelated studies side by side (data: NIAID ChemDB).

Shared fields: whole-cell or culture tests; agent: Aspergillus niger; read by: agar diffusion / agar; read-out: zone

An empty or dashed field is not shown. Zones are inhibition diameters on agar. Conditions beyond the fields shown may differ between rows.

| compound | tested at | strain or isolate | value |
|---|---|---|---|
| CCc1c(Cc2ccc(OC)c(OC)c2)[nH]c(=S)[nH]c1=O | 200 µg/disc | NRRL 599 | <10 mm |
| CN1CCN(c2nc(Nc3ccc(C#N)c(C(F)(F)F)c3)nc(Oc3cccc4cccnc34)n2)CC1 | 100 µg/disc | MTCC 282 | 19 mm |
| Cc1[nH]n(-c2ccccc2)c(=O)c1C(=Nc1cccc(N)c1C)c1ccccc1 | 400 µg/mL | - | 2 mm |
| N=C1C(=S)N(c2cccc(F)c2)C(=O)N1c1ccc(F)cc1 | 5 mg/mL | - | 30 mm |
| C=C1CC[C@@H](OC(C)=O)[C@]2(C)[C@H](OC(C)=O)[C@H](OC(C)=O)[C@H](OC(C)=O)[C@@]3(CO3)[C@H]2[C@@H](OC(C)=O)[C@@]2(O)[C@H](C)C(=O)O[C@@H]2[C@@H]1Cl | 200 µg/mL | - | 10 mm |
| Cc1ccc(N=Nc2c(C)[nH]n(C(=O)c3sc4ccc(Cl)cc4c3Cl)c2=O)c(C)c1 | 40 µg/mL | ATCC 9029 | 14 mm |
| COc1ccc(N2C(=O)N(c3ccc(F)cc3)C(=N)C2=S)cc1 | 5 mg/mL | - | 14 mm |
| CCCC(=Nc1ccc(N)cc1)c1c(C)[nH]n(-c2ccccc2)c1=O | 400 µg/mL | - | 5 mm |
| N=C1C(=S)N(c2ccccc2)C(=O)N1c1ccc(F)cc1 | 5 mg/mL | - | 12 mm |
| Cc1ccc(S(=O)(=O)CNc2oc3[nH]c(=O)[nH]c(=O)c3c2-c2ccc([N+](=O)[O-])cc2)cc1 | 100 µg/mL | - | 7 mm |
| Cc1c(Cc2ccc(Cl)cc2)nc(SCCN2C(=O)c3ccccc3C2=O)[nH]c1=O | 200 µg/disc | NRRL 599 | <10 mm |
| O=C(NN=Cc1ccc(Cl)cc1)c1snnc1C(F)(F)F | 150 µg/mL | MTCC 1344 | 0 mm |
| CC(=O)N1CCN(c2nc(Nc3ccc(C#N)c(C(F)(F)F)c3)nc(Oc3cccc4cccnc34)n2)CC1 | 100 µg/disc | MTCC 282 | 24 mm |
| O=C(Cc1ccc(-c2nc(-c3ccccc3)c(-c3ccccc3)s2)cc1)CN1CCCCC1 | 100 µg/mL | ATCC 16404 | 19 mm |
| CC1OC2=C(C(=O)c3ccccc3C2=O)C1(C)C | 100 µg/disc | ATCC64958 | 42 mm |
| CCc1c(Cc2ccc(Cl)cc2)nc(SCCN2CCOCC2)[nH]c1=O | 200 µg/disc | NRRL 599 | <10 mm |
| Cc1nn(-c2ccccc2)c(O)c1C(=Nc1cccc(N=C(c2ccccc2)c2c(C)nn(-c3ccccc3)c2O)c1)c1ccccc1 | 400 µg/mL | - | 2 mm |
| CC(=O)OCC1=C/[C@@H]2OC(=O)[C@H](C)[C@@]2(O)[C@@H](OC(C)=O)[C@H]2[C@@]3(CO3)[C@H](OC(=O)CC(C)C)C[C@H](OC(=O)CC(C)C)[C@]2(C)[C@@H](OC(C)=O)/C=C\1 | 200 µg/mL | - | 8 mm |
| Cc1cccc(N=Nc2c(C)[nH]n(C(=O)c3sc4ccc(Cl)cc4c3Cl)c2=O)c1C | 40 µg/mL | ATCC 9029 | 17 mm |
| CC1(CN2C(=N)C(=S)N(c3ccc(F)cc3)C2=O)CCC(N2C(=N)C(=S)N(c3ccc(F)cc3)C2=O)C(C)(C)C1 | 5 mg/mL | - | 0 mm |
| CC(=Nc1ccccc1N)c1c(C)[nH]n(-c2ccccc2)c1=O | 400 µg/mL | - | 6 mm |
| c1ccc(-c2nc(-c3ccc(Nc4nncs4)cc3)sc2-c2ccccc2)cc1 | 100 µg/mL | ATCC 16404 | 24 mm |
| COC1=CC(=O)C[C@@H](C)[C@]12Oc1c(Cl)c(OC)cc(OC)c1C2=O | 100 µg/mL | - | 9 mm |
| O=C(O[C@H]1Cc2c(O)cc(O)cc2O[C@@H]1c1cc(O)c(O)c(O)c1)c1cc(O)c(O)c(O)c1 | 100 µg/disc | ATCC64958 | 10 mm |
| CCc1c(Cc2ccc(Cl)cc2)[nH]c(=S)[nH]c1=O | 200 µg/disc | NRRL 599 | <10 mm |
| CCOC(=O)c1ccc(N=Nc2c(C)[nH]n(C(=O)c3sc4ccc(Cl)cc4c3Cl)c2=O)cc1 | 40 µg/mL | ATCC 9029 | 17 mm |
| NC(=S)c1ccc(OC(=O)CN2CCCCC2)cc1 | 100 µg/mL | ATCC 16404 | 21 mm |
| COc1cc(-c2oc3cc(O)cc(O)c3c(=O)c2O)ccc1O | 100 µg/disc | ATCC64958 | 15.5 mm |
| CCCCCCCCCCCCCCCCCCCCCC[C@H](O)CCCCCC | 1000 µg/mL | - | 11.5 mm |
| N#Cc1ccc(Nc2nc(Oc3cccc4cccnc34)nc(N3CCN(c4cccc(Cl)c4Cl)CC3)n2)cc1C(F)(F)F | 100 µg/disc | MTCC 282 | 23 mm |
| O=C(COc1ccc(-c2nc(-c3ccccc3)c(-c3ccccc3)s2)cc1)CN1CCCC1 | 100 µg/mL | ATCC 16404 | 24 mm |
| CC(=O)Nc1ccc(N=Nc2c(C)[nH]n(C(=O)c3sc4ccc(Cl)cc4c3Cl)c2=O)cc1 | 40 µg/mL | ATCC 9029 | 15 mm |
| N#Cc1ccc(Nc2nc(Oc3cccc4cccnc34)nc(N3CCCCC3)n2)cc1C(F)(F)F | 100 µg/disc | MTCC 282 | 23 mm |
| O=C(CNc1nncs1)Cc1ccc(-c2nc(-c3ccccc3)c(-c3ccccc3)s2)cc1 | 100 µg/mL | ATCC 16404 | 25 mm |
| O=C(NN=Cc1ccco1)c1snnc1C(F)(F)F | 100 µg/mL | MTCC 1344 | 0 mm |
| Clc1ccc(Nc2ccc(-c3nc(-c4ccccc4)c(-c4ccccc4)s3)cc2)cc1 | 100 µg/mL | ATCC 16404 | 22 mm |
| Cc1cccc(C)c1N=Nc1c(C)[nH]n(C(=O)c2sc3ccc(Cl)cc3c2Cl)c1=O | 40 µg/mL | ATCC 9029 | 10 mm |
| N#Cc1ccc(Nc2nc(Oc3cccc4cccnc34)nc(N3CCN(c4ccccn4)CC3)n2)cc1C(F)(F)F | 100 µg/disc | MTCC 282 | 24 mm |
| O=C(NN=Cc1ccccc1)c1snnc1C(F)(F)F | 100 µg/mL | MTCC 1344 | 0 mm |
| N=C1C(=S)N(c2ccc(F)cc2)C(=O)N1c1ccc(Cl)c(C(F)(F)F)c1 | 5 mg/mL | - | 16.5 mm |
| c1ccc(-c2nc(-c3ccc(N4CCOCC4)cc3)sc2-c2ccccc2)cc1 | 100 µg/mL | ATCC 16404 | 21 mm |
| CC(=O)N1N=C(c2sc3ccc(Cl)cc3c2Cl)OC1c1ccccc1 | 40 µg/mL | ATCC 9029 | 9 mm |
| C/C(Cl)=C/C=C/C=C/C=C/C=C/C(O)=C1\C(=O)[C@H](CC(N)=O)N(C2OC[C@@H](O)[C@H](O)[C@@H]2O[C@@H]2OC[C@@H](O[C@@H]3O[C@H](C)[C@@H](O)[C@@H]3O)[C@@H](O)[C@@H]2O)C1=O | 100 µg/disc | - | 28 mm |
| Cc1ccc(S(=O)(=O)CNc2oc3[nH]c(=O)[nH]c(=O)c3c2-c2ccc(O)cc2)cc1 | 50 µg/mL | - | 0 mm |

Repeating the first 6 entries:

| compound | tested at | strain or isolate | value |
|---|---|---|---|
| CCc1c(Cc2ccc(OC)c(OC)c2)[nH]c(=S)[nH]c1=O | 200 µg/disc | NRRL 599 | <10 mm |
| CN1CCN(c2nc(Nc3ccc(C#N)c(C(F)(F)F)c3)nc(Oc3cccc4cccnc34)n2)CC1 | 100 µg/disc | MTCC 282 | 19 mm |
| Cc1[nH]n(-c2ccccc2)c(=O)c1C(=Nc1cccc(N)c1C)c1ccccc1 | 400 µg/mL | - | 2 mm |
| N=C1C(=S)N(c2cccc(F)c2)C(=O)N1c1ccc(F)cc1 | 5 mg/mL | - | 30 mm |
| C=C1CC[C@@H](OC(C)=O)[C@]2(C)[C@H](OC(C)=O)[C@H](OC(C)=O)[C@H](OC(C)=O)[C@@]3(CO3)[C@H]2[C@@H](OC(C)=O)[C@@]2(O)[C@H](C)C(=O)O[C@@H]2[C@@H]1Cl | 200 µg/mL | - | 10 mm |
| Cc1ccc(N=Nc2c(C)[nH]n(C(=O)c3sc4ccc(Cl)cc4c3Cl)c2=O)c(C)c1 | 40 µg/mL | ATCC 9029 | 14 mm |